The values are deposited in ChEMBL (CHEMBL3988442, “University of Dundee, Small-Polar-MMV Screening Library” (2021)).

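Whole-cell growth test on Mycobacterium tuberculosis, read after 3 days in glucose-containing 7H9 medium; the read-out is not stated. Tested at 500 µM. Direction is inferred from retests: higher values go with more growth inhibition. About 18,000 compounds were tested under these conditions; 7.9% (about 1,400) showed 50% or more at least once.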

Each number is a percent effect as filed.
The controls that fix the scale are not given in the record; negative values are as filed.
This is part of a subset picked to be rich in strong results.

CC(C)(CNC(N)=O)N1CCc2ccccc2C1 gave 17.53%. COCCOCC(C)NC(=O)C1(C#N)CCC1 (centres undefined) read 1.323%. With O=C(Nc1ncccc1O)c1cccnc1C(F)(F)F the screen gave 1.068%. CCO[C@H]1CN(CCCc2ccco2)C[C@@H]1O read 8.904%. Result for COc1ccc(C)cc1C(=O)NCCCC(=O)N(C)C was 13.21%. Cc1nc(C(=O)OCCn2cccn2)cs1 gave 15.11%. Cc1nc(CN2CCCNCC2)cs1 read 19.34%. Result for CS(=O)(=O)CC1(CNCc2ccsc2)CC1 was 36.56%.

For C=Cc1nnnn1-c1ccccc1 the result was 13.02%. COc1cc2c(cc1OC)CN(C(=O)CCCN)CC2 read 23.55%. With O=C(NCC1(CO)CC1)OCc1ccccc1 the screen gave 60.99%. NC(CCO)Cc1ccccc1 (centres undefined) read 20.43%. COCCCNC(=O)NCCC(=O)OC(C)(C)C gave 2.4%. With O=C(CSCCO)Nc1ccccc1F the screen gave 25.79%. With CCC1CN(C(=O)c2cnc(C)cn2)CCO1 (centres undefined) the screen gave 12.74%. OCC1(O)CCCN(Cc2ccc3ccccc3n2)C1 (centres undefined) gave -42.59%.

Result for CCCN1CCC(NC(=O)c2ccc(O)cn2)C1 (centres undefined) was 11.73%. CCN(Cc1ccc(Cl)c(Cl)c1)C(=O)CCS(C)(=O)=O read 62.17%. Result for O=S1(=O)C[C@H]2CNC[C@@H](C1)[C@@H]2O was -5.152%. Result for CC(=O)Nc1nc(C(=O)N(C)C(C)CC(C)C)cs1 (centres undefined) was -2.457%. Result for CSCCC(NC(N)=O)C(=O)NCCc1ccccc1 (centres undefined) was 5.047%. CN(CC(=O)N(CCC#N)CC1CCC1)S(C)(=O)=O gave 7.2%. c1cncc(CNCc2ccc3c(c2)OCCCO3)c1 gave 29.06%. Result for O=C(CSc1nnnn1Cc1cccs1)NC1CC1 was 67.1%.

CC(C)CS(=O)(=O)CC(=O)NC1CCc2nccn2C1 (centres undefined) read -10.27%. For CC(C)OCCCNC(=O)CNC(=O)C1CCCCC1 the result was 3.741%. CNC(=O)NC(=O)CCN1CCCC(C)C1 (centres undefined) read 46.89%. Result for COc1ccccc1C1(N)CCC1 was 4.995%. CCC(CO)NC(=O)C1(c2ccc(F)cc2F)CCC1 (centres undefined) gave 54.95%. For CCOc1ncccc1NC(=O)c1[nH]ncc1Br the result was -13.1%. CCN(CC)S(=O)(=O)NCc1cccc(C#N)c1 gave 29.59%. With N[C@H]1CN(S(=O)(=O)c2cccc(F)c2)C[C@@H]1C1CC1 the screen gave 24%.

With CC(C)N(C)C(=O)C(N)c1ccccc1 (centres undefined) the screen gave 7.1%. With CN1CCN(CCS(=O)(=O)c2ccc(Cl)cc2)CC1 the screen gave 13.11%. CC(C)n1ncc(C(=O)N=c2cc[nH]n2C(C)C)c1N read 6.015%. Result for O=C(NCCc1nc(C2CC2)no1)c1cnco1 was -4.467%. For Nc1nnc(SCC(=O)NCCc2cccc(Cl)c2)s1 the result was 56.59%. CN1CCN(Cc2ccncc2)C2(CCCCC2)C1 gave -7.075%. For CCS(=O)(=O)NCCCn1ccnc1C(C)C the result was 4.805%. With COCCC(=O)NCc1ccccc1CN(C)C the screen gave 2.277%.

CNC(=O)N(Cc1ccco1)C1CCN(C)CC1 gave -5.982%. With CCn1nnc(NCc2ccccc2)n1 the screen gave 74.66%. COCCOc1ccc(C(=O)N2CCOCC2)cc1Br gave 20.71%. Result for N#Cc1c(F)cccc1NCCSCCCO was 69.32%. For O=C(OCc1cc(=O)n2ccsc2n1)c1ccccc1 the result was -20.65%. Result for CC(C)CN1CCN(c2ncccc2F)CC1 was -12.99%. CC(NCC1(C)OCCO1)c1cccc(F)c1 (centres undefined) gave 0.4142%.

The last 5 entries again:

structure	Percent Effect
COCCOc1ccc(C(=O)N2CCOCC2)cc1Br	20.71%
N#Cc1c(F)cccc1NCCSCCCO	69.32%
O=C(OCc1cc(=O)n2ccsc2n1)c1ccccc1	-20.65%
CC(C)CN1CCN(c2ncccc2F)CC1	-12.99%
CC(NCC1(C)OCCO1)c1cccc(F)c1 (centres undefined)	0.4142%